A mixed list of measured activities; the numbers were collected in NIAID ChemDB.

Shared fields: tests on isolated targets; organism: HIV-1; target: Reverse transcriptase

Neighbouring rows are from separate reports. Blank or dashed fields: not listed here. ICn is the concentration giving n% inhibition.

| structure | read by | strain or isolate | measure | changes | result |
|---|---|---|---|---|---|
| CCN1c2ncc(CCOc3ccc(-c4cc(C(=O)O)c(C)o4)cc3)cc2C(=O)N(C)c2cccnc21 | nucleotide incorporation / radiometric | IIIB | IC50 | RT-K103N Y181C | >0.1 µM |
| CN(C)c1ccc2c(COc3ccc(Cl)c(Oc4cc(Cl)cc(C#N)c4)c3)[nH]nc2n1 | nucleotide incorporation / radiometric |  | IC50 |  | <20 µM |
| CCCOCn1c(Sc2ccccc2)c(C)c(=O)[nH]c1=O | RT activity |  | IC50 |  | 34 µM |
| COc1ccc(-c2nnc(COc3ccc(Cl)c(Oc4cc(Cl)cc(C#N)c4)c3)o2)cc1 | scintillation proximity |  | IC50 | Y181C | 0.085 µM |
| N#Cc1cc(Cl)cc(Oc2cc(Cl)cc(OCc3nc4cccc(Cl)c4s3)c2)c1 | nucleotide incorporation / radiometric |  | IC50 |  | <20 µM |
| CCN1c2ncc(CCOc3ccc(NC(=O)Nc4ccc(C(=O)O)cc4)cc3C)cc2C(=O)N(C)c2cccnc21 | nucleotide incorporation / radiometric | IIIB | IC50 | RT-K103N Y181C | <0.05 µM |
| N#Cc1cc(Cl)cc(Oc2cc(OCc3nc(-c4ccccn4)no3)ccc2Cl)c1 | scintillation proximity |  | IC50 | Y181C | 0.12 µM |
| c1ccc2c(c1)CCN(c1nn3c(-c4cscn4)nnc3c3ccccc13)C2 | RT activity / fluorescence | 98US_MSC5016 | IC50 |  | 1.56 µM |
| O=c1[nH]c(=O)n([C@H]2CC[C@@H](COP(=O)(O)OP(=O)(O)OP(=O)(O)O)O2)cc1CCc1ccccc1 | nucleotide incorporation / radiometric |  | IC50 |  | 2 µM |
| Cc1nnc2n1CCN(c1nn3c(C4CC4)nnc3c3ccccc13)C2 | RT activity / fluorescence | 98US_MSC5016 | IC50 |  | >100 µM |
| Nc1nc2c(ncn2[C@H]2CC[C@@H](COP(=O)(O)OP(=O)(O)OP(=O)(O)O)O2)c(=O)[nH]1 | nucleotide incorporation / radiometric | IIIB | Ki | RT-1(IIIB) | 0.0067 µM |
| Oc1cc(O)c2c(c1)O[C@@]1(c3ccc(O)c(O)c3)Oc3cc(O)c4c(c3[C@@H]2[C@H]1O)O[C@H](c1ccc(O)c(O)c1)[C@H](O)C4 | nucleotide incorporation |  | IC50 |  | >20 µg/mL |
| O=C(O)[C@H]1O[C@@H](Oc2cc3oc(-c4ccc(O)cc4)cc(=O)c3c(O)c2O)[C@H](O)[C@@H](O)[C@@H]1O | ELISA |  | IC50 |  | ~433 µM |
| CC(C)c1nnc2c3ccccc3c(N3CCc4ccc(NS(C)(=O)=O)cc4C3)nn12 | RT activity / fluorescence | 98US_MSC5016 | IC50 |  | 1.44 µM |
| NS(=O)(=O)c1ccc(NC(=O)COc2cc(Cl)cc(Oc3ccccc3)c2)c(Cl)c1 | nucleotide incorporation / radiometric |  | IC50 |  | <20 µM |
| CCN1c2ncc(CCOc3ccc(-c4ccnc(C)c4)cc3C)cc2C(=O)N(C)c2cccnc21 | nucleotide incorporation / radiometric | IIIB | IC50 | RT-K103N Y181C | <0.05 µM |
| N#Cc1cc(Cl)cc(Oc2cc(OCc3cn(-c4ccccc4)nn3)ccc2Cl)c1 | scintillation proximity |  | IC50 | Y181C | >10 µM |
| O=C1OCC2OC(=O)c3cc(O)c(O)c(O)c3-c3c(O)c(O)c(O)c4c3C(=O)OC(C2OC(=O)c2cc(O)c(O)c(O)c2-c2c1cc(O)c(O)c2O)C1OC(=O)c2c-4c(O)c(O)c(O)c2[C@H]1O | nucleotide incorporation |  | IC50 |  | >20 µg/mL |
| CCN1c2ncc(CCOc3ccc(-c4ccc(O)cc4)cc3C)cc2C(=O)N(C)c2cccnc21 | nucleotide incorporation / radiometric | IIIB | IC50 | RT-K103N Y181C | <0.05 µM |
| O=C1OC2C(COC(=O)c3cc(O)c(O)c(O)c3)OC(OC(=O)c3cc(O)c(O)c(O)c3)C(OC(=O)c3cc(O)c(O)c4c3[C@@H]3C1=CC(=O)C(O)(O)C3(O)O4)C2OC(=O)c1cc(O)c(O)c(O)c1 | nucleotide incorporation |  | IC50 |  | >20 µg/mL |
| Nc1ncnc2c1ncn2[C@H]1CC[C@@H](COP(=O)(O)OP(=O)(O)OP(=O)(O)O)O1 | nucleotide incorporation / radiometric | IIIB | IC50 | RT-1(IIIB) | 4.3 µM |
| Oc1cc(O)c2c(c1)O[C@H](c1ccc(O)c(O)c1)[C@H](O)[C@H]2c1c(O)cc(O)c2c1O[C@H](c1ccc(O)c(O)c1)[C@H](O)[C@H]2c1c(O)cc(O)c2c1O[C@H](c1ccc(O)c(O)c1)[C@H](O)C2 | nucleotide incorporation |  | IC50 |  | >20 µg/mL |
| NS(=O)(=O)c1ccc(NC(=O)COc2cccc(Cc3ccccc3)c2)c(Cl)c1 | nucleotide incorporation / radiometric |  | IC50 |  | <20 µM |
| Cc1c(Sc2ccccc2)n(COCc2ccccc2)c(=O)[nH]c1=O | RT activity |  | IC50 |  | 4 µM |
| CCN1c2ncc(CCOc3ccc(-c4ccc(CC(=O)O)cc4F)cc3C)cc2C(=O)N(C)c2cccnc21 | nucleotide incorporation / radiometric | IIIB | IC50 |  | <0.05 µM |
| CNc1ccc2c(COc3ccc(Cl)c(Oc4cc(Cl)cc(C#N)c4)c3)[nH]nc2n1 | nucleotide incorporation / radiometric |  | IC50 |  | <20 µM |
| N#Cc1cc(Cl)cc(Oc2cc(OCc3nc(-c4ccccc4)no3)ccc2Cl)c1 | scintillation proximity |  | IC50 | Y181C | 0.24 µM |
| CCN1c2ncc(CCOc3ccc(NS(C)(=O)=O)cc3C)cc2C(=O)N(C)c2cccnc21 | nucleotide incorporation / radiometric | IIIB | IC50 |  | <0.05 µM |
| O=C(O[C@@H]1[C@@H](c2c(O)cc(O)c3c2O[C@H](c2ccc(O)c(O)c2)[C@H](OC(=O)c2cc(O)c(O)c(O)c2)C3)c2c(O)cc(O)cc2O[C@@H]1c1ccc(O)c(O)c1)c1cc(O)c(O)c(O)c1 | nucleotide incorporation |  | IC50 |  | >20 µg/mL |
| CCN1c2ncc(CCOc3ccc(C(=O)Nc4ccc(C(=O)O)cc4)cc3C)cc2C(=O)Nc2c(C)ccnc21 | nucleotide incorporation / radiometric | IIIB | IC50 | RT-K103N Y181C | <0.05 µM |
| FC(F)(F)c1ccc2c(c1)CN(c1nn3c(C4CC4)nnc3c3ccccc13)CC2 | RT activity / fluorescence | IIIB | IC50 |  | 1.82 µM |
| N#Cc1cc(Cl)cc(Oc2cc(OCc3[nH]nc4nc(N5CCC(N)C5)ccc34)ccc2Cl)c1 | nucleotide incorporation / radiometric |  | IC50 |  | <20 µM |
| CCN1c2ncc(CCOc3ccc(-c4cc[n+](C)cc4)cc3C)cc2C(=O)N(C)c2cccnc21.[O-]C(F)(F)F | nucleotide incorporation / radiometric | IIIB | IC50 | RT-K103N Y181C | <0.05 µM |